A mixed list of measured activities; the numbers were collected in NIAID ChemDB.

Common to all: tests in culture; species: HIV-1; endpoint: EC50

An empty or dashed field is not shown. Lines come from different laboratories, so protocols vary. ECn: concentration that inhibits the pathogen or its effect by n%.

| structure | mutations | strain | cell line | result |
|---|---|---|---|---|
| COCc1nc(Nc2ccc(C#N)cc2)nc(Nc2c(C)cc(/C=C/C#N)cc2C)c1C(=O)NCCc1ccc(S(N)(=O)=O)cc1 | - | K103N + Y181C | MT4 CMV-EGFP | 0.0447 µM |
| Cc1cn([C@@H]2O[C@@H]3CN[C@@]4(OCC(C)C)CS(=O)(=O)O[C@@]34[C@H]2O)c(=O)[nH]c1=O | - | IIIB | MT-4 | >250 µM |
| O=C1Nc2ccc(F)c(F)c2C(C#Cc2cccnc2)(C(F)(F)F)O1 | - | - | - | <0.00223 µM |
| COC[C@@H](c1ccc(C(F)(F)F)cc1)N1CCN(C2(C)CCN(C(=O)c3c(C)ncnc3C)CC2)C[C@@H]1C | M518V F519L | R14/S | TZM-bl | 0.001 µM |
| C/C=C/COC1(C(F)(F)F)OC(=O)Nc2ccc(Cl)cc21 | - | - | - | <0.0056 µM |
| COCc1nc(Nc2ccc(C#N)cc2)nc(Nc2c(C)cc(/C=C(\C)C#N)cc2C)c1C(=O)NCc1ccncc1 | - | K103N+Y101C | MT4 CMV-EGFP | 0.0851 µM |
| CCS[C@]12CS(=O)(=O)O[C@@]13[C@@H](CN2)O[C@@H](n1cc(C)c(=O)[nH]c1=O)[C@@H]3O[Si](C)(C)C(C)(C)C | - | IIIB | MT-4 | 31.1 µM |
| C=CCNC(=O)c1c(COC)nc(Nc2ccc(C#N)cc2)nc1Nc1c(C)cc(/C=C/C#N)cc1C | - | K103N + Y181C | MT4 CMV-EGFP | 0.0195 µM |
| O=C1Nc2ccc(Cl)cc2C(OCC2CC2)(C(F)(F)F)O1 | - | - | - | <0.0077 µM |
| COCc1nc(Nc2ccc(C#N)cc2)nc(Nc2c(C)cc(/C=C/C#N)cc2C)c1C(=O)N1CCCC(C(N)=O)C1 | - | K103N+Y101C | MT4 CMV-EGFP | 0.661 µM |
| CO[C@]12CS(=O)(=O)O[C@@]13[C@@H](CN2)O[C@@H](n1cc(C)c(=O)[nH]c1=O)[C@@H]3O | - | IIIB | MT-4 | 98.9 µM |
| COCc1nc(Nc2ccc(C#N)cc2)nc(Nc2c(C)cc(/C=C/C#N)cc2C)c1C(=O)NC1CC1 | - | K103N + Y181C | MT4 CMV-EGFP | 0.0219 µM |
| O=C1Nc2ccc(Cl)cc2C(C#Cc2cncs2)(C(F)(F)F)O1 | - | - | - | <0.00669 µM |
| COCCNC(=O)c1c(COC)nc(Nc2ccc(C#N)cc2)nc1Nc1c(C)cc(/C=C/C#N)cc1C | - | L1001+K103N | MT4 CMV-EGFP | 0.00794 µM |
| O=C1Nc2ccc(Cl)cc2C(C#Cc2ccoc2)(C(F)(F)F)O1 | - | - | - | <0.0038 µM |
| N#Cc1cc(Cl)cc(Oc2c(Br)ccc(CC(=O)Nc3ccc(S(N)(=O)=O)cc3Cl)c2F)c1 | G190A | - | MT-4 | 0.0007 µM |
| O=C1Nc2ccc(Cl)cc2C(OCCC2CC2)(C(F)(F)F)O1 | RT-K103N | - | - | <0.286 µM |
| COP(=O)(c1cc(C)cc(CCC#N)c1)c1c(C(N)=O)[nH]c2ccc(Cl)cc12 | Y181C M184V | Clinical isolate | MT-2 | 0.0015 µM |
| O=C1Nc2ccc(F)c(F)c2C(C#Cc2ccccn2)(C(F)(F)F)O1 | RT-K103N | - | - | <0.193 µM |
| CCCCCO[C@]12CS(=O)(=O)O[C@@]13[C@@H](CN2)O[C@@H](n1cc(C)c(=O)[nH]c1=O)[C@@H]3O | - | IIIB | MT-4 | 143 µM |
| COCc1nc(Nc2ccc(C#N)cc2)nc(Nc2c(C)cc(/C=C/C#N)cc2C)c1C(=O)N1CCC(O)CC1 | - | K103N + Y181C | MT4 CMV-EGFP | 1.32 µM |
| C[C@H](Cn1cnc2c(N)ncnc21)OCP(=O)(O)O | HX/3AZT | - | TZM-bl | 5.8 µM |

Repeating the final 3 entries:

structure,mutations,strain,cell line,result
CCCCCO[C@]12CS(=O)(=O)O[C@@]13[C@@H](CN2)O[C@@H](n1cc(C)c(=O)[nH]c1=O)[C@@H]3O,-,IIIB,MT-4,143 µM
COCc1nc(Nc2ccc(C#N)cc2)nc(Nc2c(C)cc(/C=C/C#N)cc2C)c1C(=O)N1CCC(O)CC1,-,K103N + Y181C,MT4 CMV-EGFP,1.32 µM
C[C@H](Cn1cnc2c(N)ncnc21)OCP(=O)(O)O,HX/3AZT,-,TZM-bl,5.8 µM